Article PMC3561163 (PLoS Neglected Tropical Diseases, 2013)

How the values were obtained:
[1] = test system: CD4^+ depleted PBMCs from YF-17DD vaccinees; assay: IFN-γ ELISPOT with CD4-depleted PBMCs; type: cell-based, human
[2] = test system: 14 different HLA class II molecules; assay: HLA class II binding, panel of 14 molecules (promiscuity); design: species or system human
[3] = test system: PBMCs from YF-17DD vaccinees; assay: IFN-γ ELISPOT ex vivo, individual peptides (second round); type: cell-based, human; details: peptide 10 µg/mL, 16 h
[4] = CD4-depleted PBMCs of responders, (−) = No response

CSCC[C@H](NC(=O)[C@H](CO)NC(=O)[C@@H](NC(=O)[C@H](C)NC(=O)[C@H](CCSC)NC(=O)[C@@H]1CCCN1C(=O)CNC(=O)[C@H](CC(N)=O)NC(=O)[C@H](Cc1c[nH]c2ccccc12)NC(=O)[C@@H](N)CC(C)C)C(C)C)C(=O)N[C@H](C(=O)NCC(=O)N[C@H](C(=O)N[C@@H](CCSC)C(=O)N[C@@H](CCCNC(=N)N)C(=O)O)C(C)C)[C@@H](C)O
IFN-γ SFC Average ± STDEV [1, 4]: 101±23 SFC (CD4-depleted PBMCs/10^6) | IFN-γ SFC Median [1, 4]: 101 SFC (CD4-depleted PBMCs/10^6) | No. of responders (CD4-depleted PBMCs) ([1]; PBMCs from 3 volunteers, CD4^+ T-cell depleted, IFN-γ ELISPOT): 3 | Level of peptide promiscuity ([2]; by number of HLA class II molecules bound (IC50≤1000 nM) out of 14): highly promiscuous (highly promiscuous (binding to ≥10 HLA molecules)) | Total DR bound ([2]; number of the 14 HLA-DR molecules bound with IC50 below the cutoff of 1000): 10 | Recognition frequency (%) (Table S1) ([3]; IFN-γ ELISPOT): 19% | No. of responders ([3]; IFN-γ ELISPOT, total PBMC 2 months to 4 years after YF-17DD vaccination, second round, out of (n) 18-59 volunteers tested per peptide): 11 | ELISPOT Max ([3]; highest response among responders): 485 SFC/10^6 PBMC | ELISPOT Min ([3]; lowest response among responders): 17 SFC/10^6 PBMC

The structures given here were assigned with low confidence; some may be wrong. Marks after values point to notes of the source that are not given here.
